# Earlier results in paper PMC11881559 (Antimicrobial Agents and Chemotherapy, 2025).
# Test system: Mpro
# Conditions: compared with nirmatrelvir; cited from earlier work
smiles,measurement,value
"O=C(NC1CCCC1)C(=O)[C@H](C[C@@H]1CCNC1=O)NC(=O)[C@@H]1[C@H]2CCC[C@H]2CN1C(=O)[C@@H](NC(=O)C(F)(F)F)C1CCCCC1 [RAY1216, leritrelvir]",effect of mutants E166A/L167F and L50F/E166V on inhibition,weaker effect
